Pooled drug test results. Numbers come from NIAID ChemDB, via PubChem.

Shared fields: toxicity to cultured cells; cell line: MT-2; read-out: CC50

Lines come from different laboratories, so protocols vary.

COc1ccc2c(C(=O)C(=O)N3CCN(C(=O)c4ccccc4)CC3)c[nH]c2c1 ; read by: XTT ; result: >10 µM
CCn1c(C2CC2)nc(CC(=O)N[C@@H](Cc2ccccc2)C(=O)N(C)c2ccc3c(c2)OCO3)c1C ; read by: ATP ; result: >20 µM
C=CCn1nc(Cc2ccc(OC)c(OC)c2)c2ccccc2c1=O ; read by: propidium iodide ; result: 70.7 µM
C=CCN(C(=O)[C@H](Cc1cc(F)cc(F)c1)NS(=O)(=O)NS(=O)(=O)N[C@@H](Cc1cc(F)cc(F)c1)C(=O)N(CC=C)c1ccc(OC)cc1)c1ccc(OC)cc1 ; read by: XTT ; result: 100 µM
O=c1c(O)cc([C@H]2Oc3cc(O)cc(O)c3C[C@H]2O)cc2c([C@H]3Oc4cc(O)cc(O)c4C[C@H]3O)cc(O)c(O)c12 ; result: 177.8 µM
Fc1ccc(Nc2ncc(Cc3c(F)cccc3F)o2)cc1 ; read by: MTT ; result: 38 µM
Cc1ccc(S(=O)(=O)NC(=O)Cc2c(C3CC3)nn(CC(=O)N[C@@H](Cc3ccccc3)C(=O)N(C)c3ccc4c(c3)OCO4)c2C)cc1 ; read by: ATP ; result: >20 µM
COCc1ccc(Nc2nnc(Cc3c(Cl)cccc3Cl)o2)cc1Cl ; read by: MTT ; result: 33 µM
O=C(C(=O)N1CCN(C(=O)c2ccccc2)CC1)c1c[nH]c2c(Cl)cccc12 ; read by: XTT ; result: >10 µM
C#CCN(C(=O)[C@H](Cc1ccccc1)NS(=O)(=O)NC(=O)N[C@@H](Cc1ccccc1)C(=O)N(CCC=C)c1ccc(OC)nc1)c1ccc(OC)nc1 ; read by: XTT ; result: 25 µM
C#C[C@@]1(CO)C=C[C@H](n2cc(C)c(=O)[nH]c2=O)O1 ; result: >100 µM
CN(C(=O)[C@H](Cc1cc(F)cc(F)c1)NC(=O)NS(=O)(=O)N[C@@H](Cc1cc(F)cc(F)c1)C(=O)N(C)c1ccc(C(F)F)nc1)c1ccc(C(F)F)nc1 ; read by: XTT ; result: 100 µM
COc1ccc2c(c1)[C@@H]1C[C@]1(C(=O)N1[C@@H]3CC[C@H]1CN(C)C3)Cn1c-2c(C2CCCCC2)c2ccc(C(=O)NS(=O)(=O)N(C)C)cc21 ; read by: XTT ; result: 14 µM
CN(c1nnc(Nc2ccc(C#N)cc2)o1)c1c(Cl)cccc1Cl ; read by: MTT ; result: 30 µM
COc1ccc(N(C)C(=O)[C@H](Cc2ccccc2)NC(=O)CC2(CC(=O)N[C@@H](Cc3ccccc3)C(=O)N(C)c3ccc(OC)cc3)CCCC2)cc1 ; read by: XTT ; result: 50 µM
Cc1ccc2c(=O)[nH]nc(Cc3ccc(Cl)cc3Cl)c2c1 ; read by: propidium iodide ; result: 79.4 µM
Clc1cccc(Cl)c1Cc1nnc(Nc2ccc(COCc3ccco3)cc2)o1 ; read by: MTT ; result: 9 µM
[2H]c1nc2cc(N(C)C(=O)[C@H](Cc3cc(F)cc(F)c3)NC(=O)NS(=O)(=O)N[C@@H](Cc3cc(F)cc(F)c3)C(=O)N(C)c3ccc4sc([2H])nc4c3)ccc2s1 ; read by: XTT ; result: 58.7 µM
[O-][n+]1onc2ncnc(N3CC[N+]4(CC3)CC[N+]3(CCN(c5ncnc6no[n+]([O-])c56)CC3)CC4)c21 ; read by: XTT ; result: 98.2 µM
CSCC[C@H](NC(=O)[C@@H](O)CS)C(=O)N[C@@H](CC(C)C)C(=O)N[C@@H](Cc1ccccc1)C(=O)N[C@H](C(=O)N[C@@H](Cc1ccccc1)C(=O)N1CCC[C@H]1C(=O)O)C(C)C ; result: 75.18 µg/mL
CCCCn1nc(Cc2ccc(OC)cc2)c2ccccc2c1=O ; read by: propidium iodide ; result: 74.1 µM
N#C/C=C/c1cc(F)cc(Oc2ccccc2OCCn2ccc(=O)[nH]c2=O)c1 ; result: 85 µM
O=C(C(=O)N1CCN(C(=O)c2ccc(F)c(Cl)c2)CC1)c1c[nH]c2ccccc12 ; read by: XTT ; result: >10 µM
Nc1nc(=O)n([C@H]2C=C[C@@H](CO)O2)cc1F ; result: ~100 µM
O=C(O[C@H]1Cc2c(O)cc(O)cc2O[C@@H]1c1cc(O)c(O)c(O)c1)c1cc(O)c(O)c(O)c1 ; result: 155.8 µM
CCc1ccc(Nc2ncc(Cc3c(Cl)cccc3Cl)o2)cc1 ; read by: MTT ; result: >100 µM
O=C(C(=O)N1CCN(C(=O)c2ccccc2)CC1)c1c[nH]c2ccc(F)cc12 ; read by: XTT ; result: >10 µM
C=CCN(C(=O)[C@H](Cc1cc(F)cc(F)c1)NC(=O)c1ccccc1C(=O)N[C@@H](Cc1cc(F)cc(F)c1)C(=O)N(CC=C)c1ccc(OC)cc1)c1ccc(OC)cc1 ; read by: XTT ; result: 100 µM
CC(=O)Oc1ccc2[nH]cc(C(=O)C(=O)N3CCN(C(=O)c4ccccc4)CC3)c2c1 ; read by: XTT ; result: >10 µM
CC(C)C[C@H](NC(=O)[C@@H](N)CO)C(=O)N[C@@H](Cc1ccccc1)C(=O)N[C@H](C(=O)N[C@@H](Cc1ccccc1)C(=O)N1CCC[C@H]1C(=O)O)C(C)C ; result: 75.97 µg/mL
O=C(O[C@@H]1Cc2c(O)cc(O)cc2O[C@@H]1c1cc(O)c(O)c(O)c1-c1c([C@H]2Oc3cc(O)cc(O)c3C[C@H]2OC(=O)c2cc(O)c(O)c(O)c2)cc(O)c(O)c1O)c1cc(O)c(O)c(O)c1 ; result: >200 µM
CSCC[C@@H](N)C(=O)N[C@H](CC(C)C)C(=O)N[C@H](Cc1ccccc1)C(=O)N[C@@H](C(=O)N[C@H](Cc1ccccc1)C(=O)N1CCC[C@@H]1C(=O)O)C(C)C ; result: 46.72 µg/mL
Cc1ccc(S(=O)(=O)NC(=O)Cc2c(C)nn(CC(=O)N[C@@H](Cc3ccccc3)C(=O)N(C)c3ccc4c(c3)OCO4)c2C2CC2)cc1 ; read by: ATP ; result: >20 µM
COc1ccc(Cc2nn(C)c(=O)c3ccccc23)cc1OC ; read by: propidium iodide ; result: 158 µM
CN(C(=O)[C@H](Cc1cc(F)cc(F)c1)NC(=O)NS(=O)(=O)N[C@@H](Cc1cc(F)cc(F)c1)C(=O)N(C)c1cnc2scnc2c1)c1cnc2scnc2c1 ; read by: XTT ; result: 100 µM
O=C1O/C(=C\c2ccc(Cl)c(Cl)c2)c2c1cccc2[N+](=O)[O-] ; read by: propidium iodide ; result: <18.6 µM
Cc1nn(CC(=O)N[C@@H](Cc2ccccc2)C(=O)N(C)c2ccc3c(c2)OCO3)c(C)c1CCO ; read by: ATP ; result: >20 µM
N#Cc1cc(Cl)cc(Oc2ccc(Cl)cc2OCCn2ccc(=O)[nH]c2=O)c1 ; result: >100 µM
COc1ccc(N(C)C(=O)[C@H](Cc2ccccc2)NC(=O)c2cncc(C(=O)N[C@@H](Cc3ccccc3)C(=O)N(C)c3ccc(OC)cc3)n2)cc1 ; read by: XTT ; result: 100 µM
CC(=O)N1CCCCC1C(NC(=O)C(=O)Nc1ccc(Cl)cc1)c1nc(C)c(CCO)s1 ; read by: XTT ; result: >84 µM
C=CSC(NC(=O)[C@H](Cc1ccccc1)NS(=O)(=O)N1CCOCC1)C(=O)N[C@@H](CC1CCCCC1)[C@@H](O)C[C@H](C(=O)NCCCC)C(C)C ; result: <13 µM
Cc1cc2cc(C#N)cn2c(C)c1Nc1ccnc(Nc2ccc(C#N)cc2)n1 ; read by: MTT ; result: 8.1 µM
Cc1ccc(Nc2ncc(Cc3c(Cl)cccc3Cl)o2)cc1 ; read by: MTT ; result: 47 µM
COC1CCN(C(=O)[C@@H](NC(=O)[C@H](Cc2ccccc2)NC(=O)[C@H](CC(C)C)NC(=O)[C@@H](N)CCSC)C(C)C)[C@@H]1C(=O)N1CCC[C@H]1C(=O)O ; result: 29.38 µg/mL
N#Cc1cc(Cl)cc(Oc2cc(Cl)ccc2OCCn2ccc(=O)[nH]c2=O)c1 ; result: 32 µM
CC(C)=CCN1Cc2c(OCCOCCOCCOCCOCCOCCn3c(=O)ccn([C@H]4C=C[C@@H](COP(=O)(O)OP(=O)(O)OP(=O)(O)O)O4)c3=O)ccc3[nH]c(=S)n(c23)C[C@@H]1C ; read by: MTT / absorbance ; result: 38 µM
Cc1ccc2c(=O)n(C)nc(Cc3ccc(Cl)cc3)c2c1 ; read by: propidium iodide ; result: 94.6 µM

Again, the opening 3 rows:

SMILES,read by,result
COc1ccc2c(C(=O)C(=O)N3CCN(C(=O)c4ccccc4)CC3)c[nH]c2c1,XTT,>10 µM
CCn1c(C2CC2)nc(CC(=O)N[C@@H](Cc2ccccc2)C(=O)N(C)c2ccc3c(c2)OCO3)c1C,ATP,>20 µM
C=CCn1nc(Cc2ccc(OC)c(OC)c2)c2ccccc2c1=O,propidium iodide,70.7 µM

CCn is the concentration with n% toxicity to the cells.